Experimental data: article doi:10.1101/864173 (bioRxiv, 2019)

Biological target: His-TEV-Prs (E. coli Prs with an N-terminal His6 tag and TEV cleavage site, uncleaved) (E. coli)
Test: pull-down

- binding result: binds
B1: untagged Prs (phosphoribosyl pyrophosphate synthase, E. coli), after removal of the His6 tag by TEV protease (enzyme)
chain: not shown
